The test system of test [1] is USUV. The note with it: Vero cells treated with 800 µM drug; cited from earlier work.
Test [2] has as its system USUV. Description: Antiviral activity (virus titer, TCID50) in persistently-infected V p39 cells. The format is cell-based, Usutu virus.
Test [3] concerns USUV. Briefly: Antiviral activity (virus titer, TCID50) in persistently-infected S p39 cells. The class given is cell-based, Usutu virus.
In test [4] the test system is USUV. Description: Antiviral activity (virus titer, TCID50) in lytically-infected Vero cells. The class given is cell-based, Usutu virus.

Bounds are passed on as bounds.

For `Oc1ncc(F)c(O)n1` [5-Fluorouracil, 2,4-dihydroxy-5-fluoropyrimidine], the “USUV titers over five consecutive lytic passages” value in the test with USUV [1] is listed as “reduced USUV titers”.
Regarding `NC(=O)c1nc(F)cnc1O` [Favipiravir, 6-fluoro-3-hydroxy-2-pyrazinecarboxamide], the “USUV titers over five consecutive lytic passages” value in the test with USUV [1] is listed as “reduced USUV titers”. The Selectivity Index in the test with USUV [2] was above 10.2; in the test with USUV [3] it was above 8.3; with USUV [4] it was above 6.3.
Consider `NC(=O)c1ncn([C@@H]2O[C@H](CO)[C@@H](O)[C@H]2O)n1` [Ribavirin, 1-(β-D-Ribofuranosyl)-1H-1,2,4-triazole-3-carboxamide], for which the “USUV titers over five consecutive lytic passages” value in the test on USUV [1] is listed as “reduced USUV titers”. For the same compound, the results for the Selectivity Index in the test on USUV [2] and with USUV [3] were above 28.2 and above 25, respectively.

The record behind these values is publication PMC6630443 (Viruses, 2019).
